Measured values from several laboratories, pooled; numbers as filed in NIAID ChemDB.

Shared fields: whole-cell or culture tests; organism: Reovirus; strain or isolate: TYPE 1; cells: VERO; measure: EC50

ECn: concentration that inhibits the pathogen or its effect by n%. An empty or dashed field is not shown. Conditions beyond the fields shown may differ between rows.

{"SMILES": "C=CCc1ncn2c(=O)[nH]c(NC(C)=O)nc12", "method": "cytopathic effect", "result": ">200 µg/mL"}
{"SMILES": "Cc1cccn2c(C3OCCO3)cnc12", "result": ">1000 µM"}
{"SMILES": "CO[C@H](CO)[C@@H](O)CCn1cnc2c(=O)[nH]c(N)nc21", "method": "cytopathic effect", "result": ">400 µg/mL"}
{"SMILES": "Nc1ncnc2c1ncn2C[C@H](O)CO", "method": "cytopathic effect", "result": "70 µg/mL"}
{"SMILES": "Nc1ccn(C(CF)CCCO)c(=O)n1", "method": "cytopathic effect", "result": ">400 µg/mL"}
{"SMILES": "CC=NC(=N)c1nc(-c2cccc(C)c2)n(C/C=C/c2ccccc2)n1", "method": "cytopathic effect", "result": ">10 µg/mL"}
{"SMILES": "O=C1CSc2nnc(-c3cn(-c4ccccc4)nc3-c3ccccc3)n2N1", "method": "cytopathic effect", "result": ">16 µg/mL"}
{"SMILES": "O=C1C=CN(COCCO)S(=O)(=O)N1COCCO", "result": ">400 µg/mL"}
{"SMILES": "CC(=O)Nn1c(-c2cn(-c3ccccc3)nc2-c2ccccc2)n[nH]c1=S", "method": "cytopathic effect", "result": ">80 µg/mL"}
{"SMILES": "CCON=C[C@H]1O[C@@H](n2cnc3c(N)ncnc32)[C@H](O)[C@@H]1O", "method": "cytopathic effect", "result": ">100 µg/mL"}
{"SMILES": "OC[C@H]1O[C@H](c2cncc(Br)c2)[C@@H](O)[C@@H]1O", "method": "cytopathic effect", "result": "≥100 µg/mL"}
{"SMILES": "NC(=O)CSc1ncnc2c1cnn2COCCO", "method": "cytopathic effect", "result": ">400 µg/mL"}
{"SMILES": "C=C(N=CC)c1nc(-c2cccc(C)c2)n([C@@H]2O[C@H](CO)[C@@H](O)[C@H]2O)n1", "method": "cytopathic effect", "result": ">40 µg/mL"}
{"SMILES": "Nc1ncnc2c1ncn2[C@@H]1C=C(CO)[C@@H](O)[C@H]1O", "method": "cytopathic effect", "result": "0.7 µg/mL"}
{"SMILES": "N#Cc1cncc([C@H]2O[C@H](CO)[C@@H](O)[C@@H]2O)c1", "method": "cytopathic effect", "result": "≥100 µg/mL"}
{"SMILES": "Nc1ncnc2c1ncn2[C@@H]1O[C@H](C=NOCc2ccccc2)[C@@H](O)[C@H]1O", "method": "cytopathic effect", "result": ">100 µg/mL"}
{"SMILES": "NC(=O)c1cncc([C@H]2O[C@H](CO)[C@@H](O)[C@@H]2O)c1", "method": "cytopathic effect", "result": "≥100 µg/mL"}
{"SMILES": "C=C(N=CC)c1nc(-c2ccc(OC)cc2)n(C2O[C@H](CO)[C@@H](O)[C@H](O)[C@H]2O)n1", "method": "cytopathic effect", "result": ">200 µg/mL"}
{"SMILES": "N#Cc1cncc([C@H]2O[C@H](CO)[C@H](O)[C@@H]2O)c1", "method": "cytopathic effect", "result": "≥100 µg/mL"}
{"SMILES": "Nc1nc(Cl)c2ccn([C@H]3CO[C@@H](CO)C3)c2n1", "method": "cytopathic effect", "result": ">400 µg/mL"}
{"SMILES": "CC=NC(=N)c1nc(-c2cccc(C)c2)n(COCCO)n1", "method": "cytopathic effect", "result": "10 µg/mL"}
{"SMILES": "CCOC(=O)CSc1nnc(-c2cn(-c3ccccc3)nc2-c2ccccc2)n1N", "method": "cytopathic effect", "result": ">16 µg/mL"}
{"SMILES": "CCC(Sc1ncnc2c1cnn2CCCCO)C(N)=O", "method": "cytopathic effect", "result": ">400 µg/mL"}
{"SMILES": "Nc1ncnc2c1ncn2CC[C@H](O)CCO", "method": "cytopathic effect", "result": ">400 µg/mL"}
{"SMILES": "CC1(C)[C@@H](CCO)C[C@H]1n1nnc2c(=O)[nH]c(N)nc21", "method": "cytopathic effect", "result": ">400 µg/mL"}
{"SMILES": "CON1CCc2c([nH]c3ccccc23)[C@@H]1[C@@H](N)CSC", "method": "cytopathic effect", "result": ">40 µg/mL"}
{"SMILES": "CC1(C)[C@@H](CO)CC[C@@]1(C)Cn1nnc2c(N)ncnc21", "method": "cytopathic effect", "result": ">400 µg/mL"}
{"SMILES": "Cc1cccn2c(C3SCCS3)cnc12", "result": ">1000 µM"}
{"SMILES": "CON=C[C@H]1O[C@@H](n2cnc3c(N)ncnc32)[C@H](O)[C@@H]1O", "method": "cytopathic effect", "result": ">100 µg/mL"}
{"SMILES": "CCOC(=O)C1=CN(COCCO)S(=O)(=O)NC1=O", "result": ">400 µg/mL"}
{"SMILES": "CC(Sc1ncnc2c1cnn2CCCCO)C(N)=O", "method": "cytopathic effect", "result": ">400 µg/mL"}
{"SMILES": "CO[C@H](CO)[C@@H](O)CCn1cc(C)c(=O)[nH]c1=O", "method": "cytopathic effect", "result": ">400 µg/mL"}
{"SMILES": "CC1(C)[C@@H](CCO)C[C@H]1n1nnc2c(Cl)nc(N)nc21", "method": "cytopathic effect", "result": "200 µg/mL"}
{"SMILES": "CC1=CC(=O)N(c2ccccc2)S(=O)(=O)N1COCCO", "result": ">400 µg/mL"}
{"SMILES": "Nc1ncnc2c1ncn2CCCC(O)CF", "method": "cytopathic effect", "result": ">400 µg/mL"}
{"SMILES": "OC[C@H]1O[C@H](c2cncc(Br)c2)[C@@H](O)[C@H]1O", "method": "cytopathic effect", "result": "≥100 µg/mL"}
{"SMILES": "CC1(CO)CCC(Cn2cnc3c(Cl)nc(N)nc32)C1(C)C", "method": "cytopathic effect", "result": ">200 µg/mL"}
{"SMILES": "Cc1cccn2c(C3OCCS3)cnc12", "result": ">1000 µM"}
{"SMILES": "Nc1ncnc2c1ncn2C(CF)CCCO", "method": "cytopathic effect", "result": ">400 µg/mL"}
{"SMILES": "CC=NC(=N)c1nc(-c2ccc(C)cc2)n(Cc2ccccc2)n1", "method": "cytopathic effect", "result": "7 µg/mL"}
{"SMILES": "Cc1nc(Cc2ccccc2)c2[nH]c(=S)[nH]c(=O)n12", "method": "cytopathic effect", "result": ">100 µg/mL"}
{"SMILES": "CC1(C)[C@@H](CO)CC[C@@]1(C)Cn1nnc2c(=O)[nH]cnc21", "method": "cytopathic effect", "result": ">400 µg/mL"}
{"SMILES": "C=CCc1nc(C)n2c(=O)[nH]c(NC(C)=O)nc12", "method": "cytopathic effect", "result": ">200 µg/mL"}
{"SMILES": "CC1(CO)CCC(Cn2nnc3c(N)nc(N)nc32)C1(C)C", "method": "cytopathic effect", "result": ">200 µg/mL"}
{"SMILES": "CC=NC(=N)c1nc(-c2ccc(OC)cc2)n(Cc2ccccc2)n1", "method": "cytopathic effect", "result": ">10 µg/mL"}
{"SMILES": "COc1ccc2[nH]c3c(c2c1)CCN1OCSCC(N)[C@@H]31", "method": "cytopathic effect", "result": "0.07 µg/mL"}
{"SMILES": "CCOC(=O)Sc1nnc(-c2cn(-c3ccccc3)nc2-c2ccccc2)n1N", "method": "cytopathic effect", "result": ">80 µg/mL"}
{"SMILES": "CC(=O)OCCOCN1C=CC(=O)N(COCCOC(C)=O)S1(=O)=O", "result": ">400 µg/mL"}
{"SMILES": "NC1CSCCN2CCc3c([nH]c4ccccc34)[C@H]12", "method": "cytopathic effect", "result": "0.7 µg/mL"}
{"SMILES": "Nc1nc2c(ncn2[C@H]2CO[C@@H](CO)C2)c(=O)[nH]1", "method": "cytopathic effect", "result": ">400 µg/mL"}
{"SMILES": "Nc1ccn(CC[C@H](O)CCO)c(=O)n1", "method": "cytopathic effect", "result": ">400 µg/mL"}
{"SMILES": "C=C(N=CC)c1nc(-c2ccccc2)n([C@@H]2O[C@H](CO)[C@@H](O)[C@H]2O)n1", "method": "cytopathic effect", "result": ">100 µg/mL"}
{"SMILES": "CC1(CO)CCC(Cn2nnc3c(Cl)nc(N)nc32)C1(C)C", "method": "cytopathic effect", "result": ">100 µg/mL"}
{"SMILES": "CC1(C)[C@@H](CCO)C[C@H]1n1cnc2c(N)ncnc21", "method": "cytopathic effect", "result": ">400 µg/mL"}
{"SMILES": "Cc1ccn2c(C3OCCO3)cnc2c1", "result": ">1000 µM"}
{"SMILES": "NC1=CC(c2ccccc2)=Nn2c(nnc2-c2cn(-c3ccccc3)nc2-c2ccccc2)S1", "method": "cytopathic effect", "result": ">16 µg/mL"}
{"SMILES": "NC(=S)c1cncc([C@H]2O[C@H](CO)[C@@H](O)[C@@H]2O)c1", "method": "cytopathic effect", "result": "≥100 µg/mL"}
{"SMILES": "CCOC(=O)C1=CN(COCCOC(C)=O)S(=O)(=O)N=C1N", "result": ">400 µg/mL"}
{"SMILES": "C=C(N=CC)c1nc(-c2ccccc2)n(C2O[C@H](CO)[C@@H](O)[C@H](O)[C@H]2O)n1", "method": "cytopathic effect", "result": ">200 µg/mL"}
{"SMILES": "OC[C@H]1O[C@@H](c2cncc(Br)c2)[C@@H](O)[C@H]1O", "method": "cytopathic effect", "result": "≥100 µg/mL"}
{"SMILES": "CC1(C)[C@@H](CO)CC[C@@]1(C)Cn1cc(I)c(=O)[nH]c1=O", "method": "cytopathic effect", "result": ">400 µg/mL"}
{"SMILES": "Nc1ncnc2c1ncn2[C@@H]1O[C@H](C=O)[C@@H](O)[C@H]1O", "method": "cytopathic effect", "result": ">200 µg/mL"}
{"SMILES": "Nc1ccn([C@@H]2C[C@H](CO)[C@@H](O)[C@H]2O)c(=O)n1", "method": "cytopathic effect", "result": "0.7 µg/mL"}

Repeating the first 5 entries:

SMILES	method	result
C=CCc1ncn2c(=O)[nH]c(NC(C)=O)nc12	cytopathic effect	>200 µg/mL
Cc1cccn2c(C3OCCO3)cnc12	-	>1000 µM
CO[C@H](CO)[C@@H](O)CCn1cnc2c(=O)[nH]c(N)nc21	cytopathic effect	>400 µg/mL
Nc1ncnc2c1ncn2C[C@H](O)CO	cytopathic effect	70 µg/mL
Nc1ccn(C(CF)CCCO)c(=O)n1	cytopathic effect	>400 µg/mL